Data as given in PubChem BioAssay AID504761 (Drosophila RNAi Screening Center, 2011).

Aim: 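Insect host genes that dengue virus relies on to spread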 (primary screen)
System: D.Mel-2 cells from Drosophila
Reagents: long dsRNA against Drosophila genes
Conditions: infection with dengue virus type 2; dose and infection time not stated
Detection: 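Per well on two replicate plates, imaging gave the percent of cells positive for viral envelope protein, ranked by infection, and a nuclear count of cells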
Direction: infection score: higher = more virus-infected cells; cell count: higher = more cells in the well
Call rule: 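Very low infection ranking in both replicate wells (chance probability at most 0.065), then a retest showing infection dropped 1.5-fold or more at p below 0.05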
Calls: active = confirmed: knock-down lowers infection; inactive = not picked or not confirmed
The deposit covers about 22,000 reagents; this is a random part of those with a known target gene and a result. Of all reagents, 116 (0.52%) are marked active. 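Calls depend on retest data that are not deposited; infection was ranked per plate without normalising between plates; the unit of the infection score is not given.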 The raw values are shown without normalisation. The numbers tell different reagents against one gene apart. Names joined by + are all predicted targets of the reagent. Further read-outs or replicates are left out here. The record does not give: the amount of reagent, the time to read-out.

The opening 4 records as a preview:
gene	reagent no.	infection score, replicate 1	infection score, replicate 2	cell count, replicate 1	activity call
Ptr (Patched-related)	1	4.1	8.61	6444	inactive
Ptr (Patched-related)	2	2.81	5.18	5977	inactive
RpS25 (Ribosomal protein S25)	1	19	21.7	4870	inactive
RpS25 (Ribosomal protein S25)	2	43.8	26.3	3808	inactive

The list itself, from the start:
gene	reagent no.	infection score, replicate 1	infection score, replicate 2	cell count, replicate 1	activity call
Ptr (Patched-related)	1	4.1	8.61	6444	inactive
Ptr (Patched-related)	2	2.81	5.18	5977	inactive
RpS25 (Ribosomal protein S25)	1	19	21.7	4870	inactive
RpS25 (Ribosomal protein S25)	2	43.8	26.3	3808	inactive
Cdk9 (Cyclin-dependent kinase 9)	1	13.7	18.2	6149	inactive
Ance-2	1	8.67	4.93	6287	inactive
gammaTub37C (gamma-Tubulin at 37C)	1	13.8	15.5	6089	inactive
gammaTub37C (gamma-Tubulin at 37C)	2	3.47	0.97	6020	inactive
CG15731	1	7.93	6.23	6067	inactive
CG15731	2	4.42	3.03	6767	inactive
CG15731	3	3.78	0.87	6275	inactive
CG2278	1	3.42	4.35	6934	inactive
UQCR-C1 (Ubiquinol-cytochrome c reductase core protein 1)	1	13.7	18.3	5257	inactive
p130CAS + Dic61B	1	11.4	6.2	6724	inactive
Elp5 (Elongator complex protein 5)	1	1.87	1.87	6208	inactive
CG13717 (retired record)	1	5.87	0.55	5931	inactive
CG13717 (retired record)	2	3.56	4.19	5925	inactive
CG13717 (retired record)	3	5.21	11.9	5832	inactive
CG13717 (retired record)	4	1.82	5.3	5936	inactive
CG13717 (retired record)	5	18.4	19.9	4210	inactive
jub (Ajuba LIM protein)	1	3.39	4.47	5520	inactive
jub (Ajuba LIM protein)	2	5.82	7.01	3335	inactive
FIG4 (FIG4 phosphoinositide 5-phosphatase)	1	1.19	28.5	590	inactive
CG13309	1	1.07	0.39	6561	inactive
thw (thawb)	1	6.9	6.79	6655	inactive
CG32313	1	3.52	1.52	6363	inactive
fan (farinelli)	1	3.97	5.1	5888	inactive
hbs (hibris)	1	17.5	14.2	6274	inactive
CG31122	1	8.26	3.33	6449	inactive
CG31122	2	3.3	3.77	6457	inactive
FANCI (Fanconi anemia complementation group I)	1	17.7	14.2	4451	inactive
Bfc (Booster for Crq)	1	11.1	0.92	5598	inactive
sol (small optic lobes)	1	7.56	1.2	5844	inactive
sol (small optic lobes)	2	11.7	6.55	4874	inactive
DppIII (Dipeptidyl aminopeptidase III)	1	7.58	12.3	6899	inactive
DppIII (Dipeptidyl aminopeptidase III)	2	3.09	8.76	6602	inactive
CG5321	1	13.6	5.83	6266	inactive
CG5321	2	1.26	15.9	6174	inactive
CG5321	3	3.77	23	6640	inactive
MED7 (Mediator complex subunit 7)	1	7.49	14.6	5312	inactive
MED7 (Mediator complex subunit 7)	2	21.5	31.8	3974	inactive
CG12951	1	1.75	8.53	6819	inactive
CG12951	2	5.82	8.92	6550	inactive
Cog2 (Component of oligomeric golgi complex 2)	1	3.92	7.5	6636	inactive
Pkn (Protein kinase N)	1	12.7	4.83	4787	inactive
Pkn (Protein kinase N)	2	2.69	4.09	5996	inactive
CG17270	1	8.9	7.65	6392	inactive
ND-13B (NADH dehydrogenase (ubiquinone) 13 kDa B subunit)	1	3.39	5.66	5391	inactive
ND-13B (NADH dehydrogenase (ubiquinone) 13 kDa B subunit)	2	14.6	4.04	6245	inactive
Snm1	1	8.49	23.9	6797	inactive
YME1L (YME1 like ATPase)	1	5.65	15.2	5716	inactive
CG15638	1	3.43	4.94	6901	inactive
Vsp37A (Vacuolar protein sorting 37A)	1	5.47	5.62	6660	inactive
ND2 (retired record)	1	0.75	2.24	6237	inactive
CG4074 + CG4186	1	3.67	6.42	6319	inactive
CG7110	1	16.9	38.2	6469	inactive
CG7110	2	1.14	3.69	6767	inactive
Vps13 (Vacuolar protein sorting 13)	1	15.2	3.74	5728	inactive
Vps13 (Vacuolar protein sorting 13)	2	0.41	20.4	485	inactive
PIG-C (Phosphatidylinositol glycan anchor biosynthesis class C)	1	1.84	3.65	6366	inactive
CG9812	1	13.1	11.4	3966	inactive
Chs2 (Chitin synthase 2)	1	1.47	7.02	6807	inactive
CG30287	1	0.44	0.17	6122	inactive
CG1571	1	2.39	1.65	6247	inactive
CG14957	1	2.26	3.86	5667	inactive
CG15880	1	2.53	2.86	5800	inactive
CG12054	1	1.6	8.28	5996	inactive
CG34227	1	15.3		6381	inactive
CG34227	2	10.2	3.71	6103	inactive
SecS (Sec synthetase)	1	1.12	16.6	5915	inactive
CG10418	1	2.06	21.2	6059	inactive
TBC1D5 (TBC1 domain family member 5)	1	12.8	16.2	5640	inactive
TBC1D5 (TBC1 domain family member 5)	2	2.2	9.65	6723	inactive
CG13991	1	5.44	0.8	5936	inactive
